Pooled drug test results. Numbers come from NIAID ChemDB, via PubChem.

Shared fields: cytotoxicity tests; cells: MT-2; read-out: CC50

Lines come from different laboratories, so protocols vary. Blank or dashed fields: not listed here. CCn: concentration that lowers growth or viability of the cells by n%.

structure,method,result
COC(=O)Nc1ccc(-n2ccnc2[C@H](Cc2ccccc2)NC(=O)NS(=O)(=O)c2ccc(Cl)cc2)cc1,XTT / absorbance,>100 µM
CCc1ccnc(Nc2ccc(C#N)c(Oc3cccc(/C=C/C#N)c3)c2)n1,-,0.36 µM
Cc1nc2sc3c(c2c(-c2cccc(-c4nccn4C)c2)c1C(OC(C)(C)C)C(=O)O)CCCC3,-,>20 µM
COc1nc(Nc2ccc(C#N)c(Oc3cccc(/C=C/C#N)c3)c2)nc(OC)n1,-,6.3 µM
COc1nc(N)nc2c1ncn2[C@H]1C=C[C@@H](CO)C1,-,>100 µM
OC[C@@H]1CC[C@H](n2cnc3c(Cl)ncnc32)S1,-,>21 µg/mL
COc1ccc(N(C)C(=O)[C@H](Cc2cc(F)cc(F)c2)NC(=O)COc2nc3ccccc3n(CC(=O)N[C@@H](Cc3cc(F)cc(F)c3)C(=O)N(C)c3ccc(OC)cc3)c2=O)cc1,XTT,50 µM
Cn1nc(NS(C)(=O)=O)c2c(Cl)ccc(-n3c([C@H](Cc4cc(F)cc(F)c4)NC(=O)Cn4ccc5ccccc54)nc4nc(-c5ccccc5F)ccc4c3=O)c21,XTT,>0.5 µM
CCCOc1nc(N)nc2c1ncn2[C@@H]1C=C[C@H](CO)C1,-,98 µM
COC(=O)C(CCCNC(=O)/C=C/c1ccc(O)c(O)c1)NC(=O)/C=C/c1ccc(O)c(O)c1,neutral red,>33 µM
COc1ccc(OC)c(CCNC(=S)Nc2ccc(Br)cn2)c1,MTT,>1 µM
CN(C(=O)[C@H](Cc1cc(F)cc(F)c1)NC(=O)NS(=O)(=O)N[C@@H](Cc1cc(F)cc(F)c1)C(=O)N(C)c1cccnc1)c1cccnc1,XTT,100 µM
COc1ccnc(Nc2ccc(C#N)c(Oc3cccc(/C=C/C#N)c3)c2)n1,-,6.9 µM
COP(=O)(c1cc(C)cc(CCC#N)c1)c1c(C(N)=O)[nH]c2ccc(Cl)c(F)c12,MTS,23.5 µM
CCOC(C(=O)O)c1c(C)nc2sc3c(c2c1-c1ccc2c(cnn2C)c1)CCCC3,-,>20 µM
COc1ccc(N(C)C(=O)[C@H](Cc2ccccc2)NC(=O)[C@H](Cc2ccccc2)NC(=O)N[C@@H](Cc2ccccc2)C(=O)N[C@@H](Cc2ccccc2)C(=O)N(C)c2ccc(OC)cc2)cc1,XTT,100 µM
N#CC1C=Cc2ccccc2N1C(=O)c1ccc(Cl)cc1,-,>10 µM
CCOC(C(=O)O)c1c(C)nc2sc3c(c2c1-c1ccc2nsnc2c1)CCCC3,-,>20 µM
Cc1nc2cc(N(C)C(=O)[C@H](Cc3cc(F)cc(F)c3)NC(=O)NS(=O)(=O)N[C@@H](Cc3cc(F)cc(F)c3)C(=O)N(C)c3ccc4sc(C)nc4c3F)ccc2s1,XTT,100 µM
COCCOc1nc(N)nc2c1ncn2[C@H]1C=C[C@@H](CO)C1,-,>100 µM
Cc1nc2sc3c(c2c(-c2ccc4cn[nH]c4c2)c1C(OC(C)(C)C)C(=O)O)CCCC3,-,>20 µM
N#C/C=C/c1cc(Cl)cc(Oc2ccc(OCCN3CCOCC3)cc2OCCn2ccc(=O)[nH]c2=O)c1,MTT,>100 µM
Cc1nc2sc3c(c2c(-c2cccc(CO)c2)c1C(OC(C)(C)C)C(=O)O)CCCC3,-,>20 µM
O=c1[nH]cnc2c1ncn2[C@H]1CC[C@@H](CO)S1,-,>100 µg/mL
COc1ccnc(Nc2ccc(C#N)c(Oc3cccc(Cl)c3)c2)n1,-,>100 µM
Cc1cc(-c2c(C(OC(C)(C)C)C(=O)O)c(C)nc3sc4c(c23)CCCC4)ccn1,-,>20 µM
COC(=O)C(CCCNC(=O)/C=C/c1cc(O)c(O)c(O)c1)NC(=O)/C=C/c1cc(O)c(O)c(O)c1,neutral red,>42 µM
Cn1nc(NS(C)(=O)=O)c2c(Cl)ccc(-n3c([C@H](Cc4cc(F)cc(F)c4)NC(=O)Cn4nc(C(F)(F)F)c5c4C(F)(F)[C@@H]4C[C@H]54)nccc3=O)c21,XTT,>1 µM
Nc1nc2c(ncn2[C@H]2C[C@H](O)[C@](CO)(C(F)(F)F)O2)c(=O)[nH]1,absorbance,3.3 µM
C#Cc1cc(C)c(Oc2ccc([N+](=O)[O-])c(Nc3ccc(C#N)cc3)n2)c(C)c1,XTT,>405 µM
CC(C)c1ccccc1-c1ccc2c(=O)n(-c3ccc(Cl)c4c(NS(C)(=O)=O)nn(C)c34)c([C@H](Cc3cc(F)cc(F)c3)NC(=O)Cn3nc(C(F)F)c4c3C(F)(F)[C@@H]3C[C@H]43)nc2c1,XTT,>0.5 µM
COc1ccc(N(C)C(=O)[C@H](Cc2ccccc2)NC(=O)C(C)(C)C(=O)N[C@@H](Cc2ccccc2)C(=O)N(C)c2ccc(OC)cc2)cc1,XTT,100 µM
N#Cc1ccc(Nc2nccc(C3CC3)n2)cc1Sc1ccccc1,-,0.039 µM
O=C(/C=C/c1ccc(O)c(O)c1)NCCCC[C@H](NC(=O)/C=C/c1ccc(O)c(O)c1)C(=O)O,neutral red,>51 µM
CC(=O)Oc1c(OCC(=O)c2ccccc2)ccc2c1C(=O)c1ccccc1C2=O,MTT,~40 µM
COc1ncc(-c2c(C(OC(C)(C)C)C(=O)O)c(C)nc3sc4c(c23)CCCC4)cn1,-,>20 µM
COc1ccc(-n2ccnc2[C@H](Cc2ccccc2)NC(=O)CN2c3ccccc3N(CC(=O)N[C@@H](Cc3ccccc3)c3nccn3-c3ccc(OC)cc3)S2(=O)=O)cc1,XTT,100 µM
O=C(O)[C@H]1O[C@@H](Oc2cc3oc(-c4ccc(O)cc4)cc(=O)c3c(O)c2O)[C@H](O)[C@@H](O)[C@@H]1O,MTT,>1082 µM
O=C(NCCCC(NC(=O)c1cc(O)c(O)c(O)c1)C(=O)O)c1cc(O)c(O)c(O)c1,neutral red,>29 µM
C=C(C)[C@@H]1CC[C@]2(CCNC(C)(C)CN3CCN(C)CC3)CC[C@]3(C)[C@H](CC[C@@H]4[C@@]5(C)CC[C@H](OC(=O)CC(C)(C)C(=O)O)C(C)(C)[C@@H]5CC[C@]43C)[C@@H]12,XTT,3.2 µM
CSc1ccnc(Nc2ccc(C#N)c(Oc3cccc(/C=C/C#N)c3)c2)n1,-,1.2 µM
CCOC(C(=O)O)c1c(C)nc2sc3c(c2c1-c1cnn(CC)c1)CCCC3,-,>20 µM
O=C(N[C@H](Cc1cc(F)cc(F)c1)c1ncccc1Br)NS(=O)(=O)c1ccccc1Cl,XTT / absorbance,>100 µM
Nc1nc2c(ncn2[C@H]2CC[C@@H](CO)S2)c(=O)[nH]1,-,>200 µg/mL
COc1ccc(-c2c(C(Cc3ccccc3)NC(=O)NS(=O)(=O)c3ccccc3C)ncn2C)cc1,XTT / absorbance,>100 µM
Nc1nc(N)c2ncn([C@H]3C=C[C@@H](CO)C3)c2n1,-,>100 µM
COc1ccc(C[C@H](C[C@H](O)[C@H](Cc2ccccc2)NC(=O)OC(C)(C)C)C(=O)N[C@H](C(=O)N[C@@H](Cc2ccccc2)C(=O)N2CCOCC2)C(C)C)cc1,-,>100 µM
COC(=O)C(CCCCNC(=O)/C=C/c1ccc(O)c(O)c1)NC(=O)/C=C/c1ccc(O)c(O)c1,neutral red,>68 µM
COc1ccc(N(C)C(=O)C(Cc2ccccc2)NC(=O)c2cccc(C(=O)N[C@H](Cc3ccccc3)C(=O)N(C)c3ccc(OC)cc3)c2)cc1,XTT,3.7 µM
[O-][n+]1onc2ncnc(N3CC[N+]4(CC3)CC[N+]3(CCN(c5ncnc6no[n+]([O-])c56)CC3)CC4)c21,XTT,79.1 µM
CN(C(=O)[C@H](Cc1cc(F)cc(F)c1)NC(=O)c1ccc(F)c(C(=O)N[C@@H](Cc2cc(F)cc(F)c2)C(=O)N(C)c2ccc3snnc3c2)c1)c1ccc2snnc2c1,XTT,100 µM
Cn1nc(NS(C)(=O)=O)c2c(Cl)ccc(-n3c([C@@H](Cc4cc(F)cc(F)c4)NC(=O)Cn4nc(C(F)(F)F)c5c4C(F)(F)[C@@H]4C[C@H]54)nccc3=O)c21,XTT,>1 µM

Repeating the first 8 entries:

{"structure": "COC(=O)Nc1ccc(-n2ccnc2[C@H](Cc2ccccc2)NC(=O)NS(=O)(=O)c2ccc(Cl)cc2)cc1", "method": "XTT / absorbance", "result": ">100 µM"}
{"structure": "CCc1ccnc(Nc2ccc(C#N)c(Oc3cccc(/C=C/C#N)c3)c2)n1", "result": "0.36 µM"}
{"structure": "Cc1nc2sc3c(c2c(-c2cccc(-c4nccn4C)c2)c1C(OC(C)(C)C)C(=O)O)CCCC3", "result": ">20 µM"}
{"structure": "COc1nc(Nc2ccc(C#N)c(Oc3cccc(/C=C/C#N)c3)c2)nc(OC)n1", "result": "6.3 µM"}
{"structure": "COc1nc(N)nc2c1ncn2[C@H]1C=C[C@@H](CO)C1", "result": ">100 µM"}
{"structure": "OC[C@@H]1CC[C@H](n2cnc3c(Cl)ncnc32)S1", "result": ">21 µg/mL"}
{"structure": "COc1ccc(N(C)C(=O)[C@H](Cc2cc(F)cc(F)c2)NC(=O)COc2nc3ccccc3n(CC(=O)N[C@@H](Cc3cc(F)cc(F)c3)C(=O)N(C)c3ccc(OC)cc3)c2=O)cc1", "method": "XTT", "result": "50 µM"}
{"structure": "Cn1nc(NS(C)(=O)=O)c2c(Cl)ccc(-n3c([C@H](Cc4cc(F)cc(F)c4)NC(=O)Cn4ccc5ccccc54)nc4nc(-c5ccccc5F)ccc4c3=O)c21", "method": "XTT", "result": ">0.5 µM"}